PubChem BioAssay AID504761, Drosophila RNAi Screening Center, 2011
The deposit covers about 22,000 reagents; this is an unselected part of those that have a named target and a result. Over the whole deposit, 116 (0.52%) got an active call. 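Calls depend on retest data that are not deposited; infection was ranked per plate without normalising between plates; the unit of the infection score is not given.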 The raw values are shown without normalisation. Further read-outs or replicates are left out here. Reagent sequences are not shown. The record does not give: the amount of reagent, the time to read-out.

Assay: 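Genome-wide fly cell screen for genes dengue virus requires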 (primary screen)
System: D.Mel-2 cells from Drosophila
Reagents: long dsRNA against Drosophila genes
Treatment: infection with dengue virus type 2; dose and infection time not stated
Detection: 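Cells stained for dengue envelope protein and imaged; percent of infected cells per well on duplicate plates, ranked by infection, with stained nuclei counted for cell number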
Scale: infection score: higher = more virus-infected cells; cell count: higher = more cells in the well
Call rule: 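Very low infection ranking in both replicate wells (chance probability at most 0.065), then a retest showing infection dropped 1.5-fold or more at p below 0.05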
Meaning of the calls: active = confirmed: knock-down lowers infection; inactive = not picked or not confirmed

CG12688 (retired record) [DRSC17877]: infection score, replicate 1 = 12.5; cell count, replicate 1 = 3608; activity call = inactive
CG12688 (retired record) [DRSC17878]: infection score, replicate 1 = 14.1; cell count, replicate 1 = 4491; activity call = inactive
CG32409 [DRSC08780]: infection score, replicate 1 = 4.04; cell count, replicate 1 = 6336; activity call = inactive
CG32409 [DRSC25913]: infection score, replicate 1 = 2.99; cell count, replicate 1 = 5821; activity call = inactive
l(3)neo38 [DRSC14946]: infection score, replicate 1 = 2.67; cell count, replicate 1 = 6138; activity call = inactive
l(3)neo38 [DRSC16138]: infection score, replicate 1 = 4.17; cell count, replicate 1 = 6361; activity call = inactive
l(3)neo38 [DRSC23262]: infection score, replicate 1 = 2.36; cell count, replicate 1 = 6155; activity call = inactive
l(3)neo38 [DRSC27112]: infection score, replicate 1 = 26.7; cell count, replicate 1 = 5885; activity call = inactive
l(3)neo38 [DRSC27668]: infection score, replicate 1 = 5.11; cell count, replicate 1 = 6051; activity call = inactive
Doa [DRSC13892]: infection score, replicate 1 = 3.08; cell count, replicate 1 = 6788; activity call = inactive
Doa [DRSC13893]: infection score, replicate 1 = 0.99; cell count, replicate 1 = 6844; activity call = inactive
Doa [DRSC13896]: infection score, replicate 1 = 2.79; cell count, replicate 1 = 5441; activity call = inactive
Doa [DRSC13897]: infection score, replicate 1 = 6.68; cell count, replicate 1 = 6193; activity call = inactive
Doa [DRSC16650]: infection score, replicate 1 = 2.76; cell count, replicate 1 = 6201; activity call = inactive
Doa [DRSC26631]: infection score, replicate 1 = 4.79; cell count, replicate 1 = 5716; activity call = inactive
CG10841 [DRSC14271]: infection score, replicate 1 = 8.21; cell count, replicate 1 = 5773; activity call = inactive
CG10841 [DRSC28142]: infection score, replicate 1 = 6.24; cell count, replicate 1 = 1025; activity call = inactive
CG9467 [DRSC16498]: infection score, replicate 1 = 7.93; cell count, replicate 1 = 6723; activity call = inactive
CG5068 [DRSC10476]: infection score, replicate 1 = 18.1; cell count, replicate 1 = 5692; activity call = inactive
CG4586 [DRSC18373]: infection score, replicate 1 = 2.29; cell count, replicate 1 = 6538; activity call = inactive
Pxt [DRSC17040]: infection score, replicate 1 = 1.02; cell count, replicate 1 = 5690; activity call = inactive
RtGEF [DRSC03604]: infection score, replicate 1 = 13.3; cell count, replicate 1 = 3667; activity call = inactive
RtGEF [DRSC22207]: infection score, replicate 1 = 4.62; cell count, replicate 1 = 6630; activity call = inactive
dally [DRSC08954]: infection score, replicate 1 = 1.62; cell count, replicate 1 = 6286; activity call = inactive
dally [DRSC11338]: infection score, replicate 1 = 6.19; cell count, replicate 1 = 6441; activity call = inactive
Lsp2 [DRSC09841]: infection score, replicate 1 = 1.14; cell count, replicate 1 = 6589; activity call = inactive
Lsp2 [DRSC11216]: infection score, replicate 1 = 2.84; cell count, replicate 1 = 6312; activity call = inactive
Lsp2 [DRSC24021]: infection score, replicate 1 = 3.25; cell count, replicate 1 = 2523; activity call = inactive

Copied from above, 2 entries:
CG12688 (retired record) [DRSC17877]: infection score, replicate 1 = 12.5; cell count, replicate 1 = 3608; activity call = inactive
CG12688 (retired record) [DRSC17878]: infection score, replicate 1 = 14.1; cell count, replicate 1 = 4491; activity call = inactive
